## Fitness effects across NS2B and the NS3 protease domain of Zika virus

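Mutant virus pools were grown in human Huh-7.5 cells. Deep sequencing gave the change in frequency of each mutant relative to wild type, averaged over three replicate libraries (two for positions 207-308). The study looked for pockets that tolerate few changes, as a guide for inhibitor design.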

Protein: NS2B and the protease part of NS3 of Zika virus strain MR766. Positions count along the chain below; NS2B spans 2-131 and NS3 starts at 132.
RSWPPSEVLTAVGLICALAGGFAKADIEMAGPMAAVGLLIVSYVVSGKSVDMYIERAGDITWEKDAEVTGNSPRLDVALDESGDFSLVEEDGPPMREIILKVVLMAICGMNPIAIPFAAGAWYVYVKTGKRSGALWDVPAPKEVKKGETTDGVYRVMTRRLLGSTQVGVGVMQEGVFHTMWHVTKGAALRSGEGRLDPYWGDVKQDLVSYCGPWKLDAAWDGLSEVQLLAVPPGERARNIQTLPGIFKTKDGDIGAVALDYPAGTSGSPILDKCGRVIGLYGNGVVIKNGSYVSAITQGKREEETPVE

Values are log2 effects on growth: 0 is wild type, lower means poorer growth.
Each entry names the wild-type residue, its position and the residue put in its place.
All changes here are to isoleucine.
Values above 0 are not proof of better growth: six high scorers were tested one by one, five grew less well than wild type and one about as well.
Position 1 still belongs to NS2A. In the paper, -1 or higher counts as tolerated.
The region was split into three libraries (1-103, 104-206, 207-308).

| substitution | effect (log2) |
|---|---|
| V169I | -2.68 |
| G170I | -5.12 |
| V171I | -3.30 |
| M172I | -2.17 |
| Q173I | -5.10 |
| E174I | -5.66 |
| G175I | -4.05 |
| V176I | -2.30 |
| F177I | -5.14 |
| H178I | -4.72 |
| T179I | -5.63 |
| M180I | -5.56 |
| W181I | -4.56 |
| H182I | -3.43 |
| V183I | -5.29 |
| T184I | -5.92 |
| K185I | -5.90 |
| G186I | -4.54 |
| A187I | -4.54 |
| A188I | -4.55 |
| L189I | -1.64 |
| R190I | -4.87 |
| S191I | -3.49 |
| G192I | -5.13 |
| E193I | -2.35 |
| G194I | -5.78 |
| R195I | -3.35 |
| L196I | -0.16 |
| D197I | -0.86 |
| P198I | -4.90 |
| Y199I | -1.52 |
| W200I | -6.24 |
| G201I | -4.90 |
| D202I | -5.73 |
| V203I | -1.55 |
| K204I | -7.21 |
| Q205I | -3.53 |
| D206I | -5.77 |
| L207I | -2.81 |
| V208I | -1.28 |
| S209I | -5.47 |
| Y210I | -6.89 |
| C211I | -2.43 |
| G212I | -6.43 |
| P213I | -6.48 |
| W214I | -7.27 |
| K215I | -6.60 |
| L216I | -6.18 |
| D217I | -5.79 |
| A218I | -6.10 |
| A219I | 1.59 |
| W220I | -6.09 |
| D221I | -5.75 |
| G222I | -5.53 |
| L223I | -0.54 |
| S224I | -6.63 |
| E225I | -5.93 |
| V226I | -4.93 |
| Q227I | -5.48 |
| L228I | -4.17 |
| L229I | -2.38 |
| A230I | -3.56 |
| V231I | 0.72 |
| P232I | -0.37 |
| P233I | -5.57 |
| G234I | -5.03 |
| E235I | -5.30 |
| R236I | 0.95 |
| A237I | -0.52 |
| R238I | 2.21 |
| N239I | -5.85 |

The last 9 entries again:

V231I: 0.72.
P232I: -0.37.
P233I: -5.57.
G234I: -5.03.
E235I: -5.30.
R236I: 0.95.
A237I: -0.52.
R238I: 2.21.
N239I: -5.85.

Data from the supplement of Ni et al. 2025, doi:10.1038/s41467-025-63602-z.